{"source": "PubChem BioAssay AID504761 (Drosophila RNAi Screening Center, 2011)", "test": "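Insect host genes that dengue virus relies on to spread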 (primary screen)", "cells": "D.Mel-2 cells from Drosophila", "knock-down reagent": "long dsRNA against Drosophila genes", "treatment": "infection with dengue virus type 2; dose and infection time not stated", "detection": "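Cells stained for dengue envelope protein and imaged; percent of infected cells per well on duplicate plates, ranked by infection, with stained nuclei counted for cell number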", "direction": "infection score: higher = more virus-infected cells; cell count: higher = more cells in the well", "active means": "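Low infection ranks in the two replicates (chance level up to 0.065) followed by a retest with a 1.5-fold or larger significant decrease, p below 0.05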", "calls": "active = confirmed: knock-down lowers infection; inactive = not picked or not confirmed", "note": "In all, the deposit lists about 22,000 reagents; below is a random part of those that have a named target and a result. Over the whole deposit, 116 (0.52%) got an active call. 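Calls depend on retest data that are not deposited; infection was ranked per plate without normalising between plates; the unit of the infection score is not given.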 The raw values are shown without normalisation. A plus sign joins genes that one reagent is predicted to hit. Not all columns of the deposit are shown. Not stated in the record: the amount of reagent, the time to read-out."}
{"target": "CG13000", "dsRNA": "DRSC19519", "infection score, replicate 1": 16.1, "cell count, replicate 1": 4863, "outcome": "inactive"}
{"target": "CG13000", "dsRNA": "DRSC25279", "infection score, replicate 1": 18.6, "cell count, replicate 1": 6086, "outcome": "inactive"}
{"target": "CG46441", "dsRNA": "DRSC15561", "infection score, replicate 1": 6.44, "cell count, replicate 1": 6161, "outcome": "inactive"}
{"target": "CG46441", "dsRNA": "DRSC24659", "infection score, replicate 1": 6.69, "cell count, replicate 1": 7130, "outcome": "inactive"}
{"target": "eEF1beta", "dsRNA": "DRSC07419", "infection score, replicate 1": 5.29, "cell count, replicate 1": 6879, "outcome": "inactive"}
{"target": "eEF1beta", "dsRNA": "DRSC24367", "infection score, replicate 1": 4.52, "cell count, replicate 1": 6321, "outcome": "inactive"}
{"target": "Atg5", "dsRNA": "DRSC18112", "infection score, replicate 1": 8.23, "cell count, replicate 1": 6175, "outcome": "inactive"}
{"target": "Sgp", "dsRNA": "DRSC02195", "infection score, replicate 1": 4.2, "cell count, replicate 1": 6245, "outcome": "inactive"}
{"target": "Kap-alpha3", "dsRNA": "DRSC16976", "infection score, replicate 1": 1.19, "cell count, replicate 1": 2024, "outcome": "inactive"}
{"target": "Gyc89Db", "dsRNA": "DRSC15009", "infection score, replicate 1": 14.9, "cell count, replicate 1": 5871, "outcome": "inactive"}
{"target": "Or56a", "dsRNA": "DRSC07495", "infection score, replicate 1": 2.48, "cell count, replicate 1": 5965, "outcome": "inactive"}
{"target": "Qsox3", "dsRNA": "DRSC16096", "infection score, replicate 1": 2.48, "cell count, replicate 1": 6815, "outcome": "inactive"}
{"target": "CG7011 + Prp31", "dsRNA": "DRSC10760", "infection score, replicate 1": 14.3, "cell count, replicate 1": 3338, "outcome": "inactive"}
{"target": "CG13896", "dsRNA": "DRSC08366", "infection score, replicate 1": 1.13, "cell count, replicate 1": 5747, "outcome": "inactive"}
{"target": "MED16", "dsRNA": "DRSC04506", "infection score, replicate 1": 22, "cell count, replicate 1": 6221, "outcome": "inactive"}
{"target": "MED16", "dsRNA": "DRSC26633", "infection score, replicate 1": 1.48, "cell count, replicate 1": 6840, "outcome": "inactive"}
{"target": "CG31949", "dsRNA": "DRSC00110", "infection score, replicate 1": 4.12, "cell count, replicate 1": 5855, "outcome": "inactive"}
{"target": "Jwa", "dsRNA": "DRSC02048", "infection score, replicate 1": 9.85, "cell count, replicate 1": 6406, "outcome": "inactive"}
{"target": "Jwa", "dsRNA": "DRSC26655", "infection score, replicate 1": 1.47, "cell count, replicate 1": 5768, "outcome": "inactive"}
{"target": "CG15282", "dsRNA": "DRSC23090", "infection score, replicate 1": 0.97, "cell count, replicate 1": 6083, "outcome": "inactive"}
{"target": "CG15282", "dsRNA": "DRSC29233", "infection score, replicate 1": 15.9, "cell count, replicate 1": 3889, "outcome": "inactive"}

2 entries already listed, arranged by “cell count, replicate 1”, ascending.
{"target": "Kap-alpha3", "dsRNA": "DRSC16976", "infection score, replicate 1": 1.19, "cell count, replicate 1": 2024, "outcome": "inactive"}
{"target": "Sgp", "dsRNA": "DRSC02195", "infection score, replicate 1": 4.2, "cell count, replicate 1": 6245, "outcome": "inactive"}
